Screening data, single-dose tests

Measurements from “University of Dundee, Small-Polar-MMV Screening Library” (2021), ChEMBL document CHEMBL3988442.

Results are given as percent effect. How 0% and 100% were set is not recorded. Most values in the screen are low, and negative values occur. This is part of a subset picked to be rich in strong results. A dash means the value is not listed here; it may have been measured.

Mtb glucose medium: 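Growth of Mycobacterium tuberculosis over 3 days (7H9 medium with glucose and tyloxapol); the read-out is not stated. Compounds at 500 µM. Higher reads as more growth inhibition (inferred: compounds with an IC50 in retests scored well above the rest). Size under these conditions: about 18,000 compounds, about 1,400 of them at 50% or above in at least one test.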
Mtb cholesterol medium: 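Growth of Mycobacterium tuberculosis over 4 days (cholesterol / DPPC medium with tyloxapol); the read-out is not stated. Concentration: 500 µM. Higher reads as more growth inhibition (inferred: compounds with an IC50 in retests scored well above the rest). About 18,000 compounds were tested under these conditions; 5% (about 900) showed 50% or more at least once.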

| Compound | Mtb glucose medium | Mtb cholesterol medium |
|---|---|---|
| `CN1CCCCC1CC(=O)NCc1ccc(C#N)cc1` (centres unmarked) | - | 58.39% |
| `O=C(NC1CCc2ccc(F)cc21)c1c[nH]nn1` (centres unmarked) | 53.79% | - |
| `CCN1CC(C(N)=O)CC1=O` (centres unmarked) | - | 14.52% |
| `CC(C)N(C)CC(=O)N1CCN(CC(C)(C)O)CC1` | 2.216% | - |
| `NC1CCCN(c2ccccc2)C1` (centres unmarked) | 43.84% | - |
| `CCC(C)NC(=O)c1cnn(-c2ccccc2)n1` (centres unmarked) | -4.801% | - |
| `COc1cc(C)ccc1OC(C)C(=O)NC(N)=O` (centres unmarked) | 8.366% | - |
| `Cn1cc(C(=O)NCc2ccccc2F)cn1` | 36.12% | - |
| `CCOc1ccccc1CCC(N)=O` | 9.094% | - |
| `CC(C)N(C)C(=O)Nc1ccccc1SCC(N)=O` | -3.201% | - |
| `Cc1ccsc1CNC(=O)C(NC(N)=O)C(C)C` (centres unmarked) | 2.253% | - |
| `CCCNC(=O)NC(=O)CNc1cc(F)ccc1F` | 13.16% | - |
| `COc1ccccc1C(=O)N(C)C1CCN(C)CC1` | 2.234% | - |
| `COC(=O)c1ccc(OCC(=O)N2CCOCC2)cc1` | - | 26.84% |
| `O=C(NCC1CCS(=O)(=O)CC1)c1cc2sccc2[nH]1` | 15.26% | - |
| `O=S(=O)(Cc1ccccc1C(F)(F)F)CC(O)CO` (centres unmarked) | 1.153% | - |
| `O=C1C(N2CCNCC2)CCCN1CC(F)(F)F` (centres unmarked) | -4.578% | - |
| `O=C(Cn1cncn1)Nc1ccc(I)cn1` | -6.199% | -15.48% |
| `CC(C)c1ccnc(N2CCNCC2)n1` | 30.46% | - |
| `Cc1nc(CN(C)CC2CCN(CC(C)O)CC2)no1` (centres unmarked) | - | -16.56% |
| `COCC1CCN(C(=O)C(CN)CC(C)C)CC1` (centres unmarked) | 12.94% | - |
| `CS(=O)(=O)N1CCCCC1C(=O)N1CCOCC1` (centres unmarked) | -8.964% | - |
| `CC(=O)c1cc(C(=O)NCc2cn3c(n2)SCC3)cs1` | 14.95% | - |
| `CC(C)N1CCC(NC(=O)c2c(Br)cnn2C)CC1` | - | 16.49% |
| `O=C(CN1CCCCCC1=O)OCC=CCl` | - | 29.28% |
| `c1nc2c(c(NCCC3CCOC3)n1)CCNCC2` (centres unmarked) | 7.25% | - |
| `Cc1nnc(CN2C[C@H](C3CC3)[C@@H](N)C2)s1` | 7.436% | - |
| `Cc1noc(C)c1CN1CCC(C(N)=O)CC1` | - | -2.425% |
| `COCC(=O)Nc1cccc(C)c1C(=O)N1CCCC1` | 9.751% | - |
| `CC(C)CN1CCNC(=O)C1` | 1.014% | - |
| `COCC(C)CNc1cccc(S(=O)(=O)N(C)C)c1` (centres unmarked) | -3.649% | - |
| `COc1ccc(CCCC(=O)N2CCC(CN)C2)cc1` (centres unmarked) | 73.47% | - |
| `COc1cccc(CN(C)C(=O)c2cccnc2)n1` | 19.69% | -0.8347% |
| `c1ccc2c(c1)CCOC21CCNCC1` | - | 8.087% |
| `CNC1CCCN(Cc2noc(C)n2)C1` (centres unmarked) | 7.886% | - |
| `Cc1cc(CC(=O)NCCSc2nnc(C)s2)on1` | 0.2079% | - |
| `O=C(NCC1(O)CCCc2ccccc21)c1csnn1` (centres unmarked) | 31.32% | - |
| `Cn1ccc2ccc(NS(=O)(=O)C3CC3)cc2c1=O` | -9.035% | - |
| `O=C1CN(C(=O)COCC2CC2)c2ccccc2N1` | 28.19% | - |
| `CCc1cccc2c1N(C(=O)CNC)CC2` | 50.51% | - |
| `NCc1noc(-c2ccc(Cl)cc2F)n1` | 57.93% | 59.14% |
| `COCC1CCCN(CCN)C1` (centres unmarked) | -1.196% | - |

For reference, 3 entries once more:

For CS(=O)(=O)N1CCCCC1C(=O)N1CCOCC1 (centres unmarked) the result was Mtb glucose medium: -8.964%.
For COCC1CCN(C(=O)C(CN)CC(C)C)CC1 (centres unmarked) the result was Mtb glucose medium: 12.94%.
For NC1CCCN(c2ccccc2)C1 (centres unmarked) the result was Mtb glucose medium: 43.84%.